This note sets out measurements from publication PMC11236705 (2024).

The test concerns the target T1, Clostridium perfringens enterotoxin (CpE) (Clostridium perfringens, UniProt P01558 1-319).
T1 chain: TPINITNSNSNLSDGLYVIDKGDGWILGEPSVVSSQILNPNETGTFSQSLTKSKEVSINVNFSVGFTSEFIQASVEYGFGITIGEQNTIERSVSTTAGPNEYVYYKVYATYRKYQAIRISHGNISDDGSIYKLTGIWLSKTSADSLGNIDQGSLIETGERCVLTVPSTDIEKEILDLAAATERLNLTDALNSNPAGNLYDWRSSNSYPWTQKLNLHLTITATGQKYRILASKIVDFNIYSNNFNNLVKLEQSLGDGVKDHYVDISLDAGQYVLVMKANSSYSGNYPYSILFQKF
The test is described as follows: BLI. (In BLI a coated tip is dipped into the sample, and binding shifts an interference pattern.)

A word on the Kd: it is a measure of binding affinity in units of concentration. Lower therefore signals higher affinity.

B1: CLN1_18, soluble analogue of human claudin-1 (other)
chain: MEKEKRIKEALETAKKGLKLAEEAYRNPQWRIYSYAGDNIVTAQAMYEGLWMSCVSQSTGQIQCKVFDSLLNLSSTLQETRKKVEEGIELGKKAIEIAEEGDPRNPKYKDNPELQLELIKKGAELFLKAGELVREAVETYGARIEQEFNDPMTPVNARYEFGQALETGRKAAELIIRGAEGLLNTTEE
On to B1, for which binding was characterised by a dissociation constant (Kd) of 3200 nM.

B2: CLN4_20, soluble analogue of human claudin-4 (other)
chain: MSSLETFREARRLAREGLELVREAARLPMWRVTAFIGSNIVTSQTIWEGLWMNCVVQSTGQMQCKVYDSLLALPEDLRRARESFERAIEVAEKALELLEIGDPDSDAIEDEEERLQTIHEAGELLLKAAELAREPTEAIADRIIQDFYNPLVASGQKREMGASLALARRGAELLEEAGRKLLGLEGGSLEHHHHHH
The molecule B2 had a Kd of 300 nM.
